The assay has as its target RBD. The assay is described as follows: BLI. In general terms: Biolayer interferometry detects binding as a change in optical thickness at a sensor tip.

pKd: −log10 of the molar value.

Substance CR3022 gave a pKd of 7.73.
The value for CV30 was 8.06.

One may read the pKd as the Kd on a negative log10 scale, so that one unit is a factor of ten. Higher therefore signals a small Kd.

Source of the values: patent US20250002907A1.
